Residue numbers refer to the chain shown, from its start.
Key:
[1] = biological target: high affinity human FcγR3a 176Val allotype receptor (human, UniProt P08637 17-254); test: cell-based or functional assay
[2] = biological target: T1, VLPs expressing VSV only (negative binding control) (vesicular stomatitis virus); test: MSD electrochemiluminescence, control VLPs on plate, mAb […], expt 2
[3] = biological target: SARS-COV-2 RBD extracellular domain expressed with a C-terminal myc-myc-hexahistidine (SARS-COV-2 RBD-MMH) (SARS-CoV-2); test: SPR
[4] = biological target: SARS-CoV-2 spike protein (SARS-CoV-2-S) on VSV pseudovirus (VSV-SARS-CoV-2-S) (SARS-CoV-2, UniProt P0DTC2 16-1211); test: cell-based or functional assay
[5] = biological target: SARS-CoV-2 spike protein (S-wt, Wuhan-Hu-1, NCBI Accession Number MN908947.3) on VSV-SARS-CoV-2-S … (SARS-CoV-2, UniProt P0DTC2 14-1273); test: cell-based or functional assay
[6] = biological target: SARS-CoV-2 RBD extracellular domain expressed with a C-terminal myc-myc-hexahistidine tag (SARS-COV-2 RBD-MMH) (SARS-CoV-2); test: SPR Biacore, mAb supernatant captured by anti-Fc, RBD-MMH injected, 25 C
[7] = biological target: T1, VLPs expressing VSV only (negative …); test: MSD electrochemiluminescence, control VLPs on plate, mAb […], expt 1

B1: mAb10984 (antibody)
heavy: not shown
light: QSVLTQPPSVSAAPGQKVTISCSGSSSNIGNNYVSWYQQLPGTAPKLLIYDNNKRPSGIPDRFSGSKSGTSATLGITGLQTGDEADYYCGTWDSSLSAGVFGGGTKLTVLGQPKAAPSVTLFPPSSEELQANKATLVCLISDFYPGAVTVAWKADSSPVKAGVETTTPSKQSNNKYAASSYLSLTPEQWKSHRSYSCQVTHEGSTVEKTVAPTECS
ADCC Mean RLU [1]: 6780 RLU

B2: mAb10954 (antibody, V domains shown)
VH: EVQLVESGGGLVQPGGSLRLSCAASGITVSSNYMSWVRQAPGKGLEWVSLIYSGGSTYYADSVKGRFTISRDNSKNTLYLQMNSLRVEDTAVYYCARDHGMAAAGYNYWGQGTLVTVSS
VL: DIQMTQSPSSLSASVGDRVTITCQASQDINKYLNWYQQKPGKAPKLLIYDASNLETGVPSRFSGSGSGTDFTFTINSLQPEDFATYFCQQYDNLPPAFGQGTKVEIKR
Antibody Binding Signal (RLU) [2]: 48 RLU

B3: mAb11004 (antibody, V domains shown)
VH: QVQLVESGGGVVQPGRSLRLSCVASGFTFSIYGMDWVRQAPGKGLEWVAVISYDGSNKYYADSVKGRFTISRDNSKNTLYLQMNSLRPEDTAVYYCAKDREAAADAFDIWGQGTMVTVSS
VL: DIQMTQSPSSVSASVGDRVTITCRASQGISSWLAWYQQKPGKAPKLLIYAASSLHSGVPSRFSGSGSGTDFTLTISSLQPEDFATYYCQQANSFRLTFGGGTKVEIKR
t½ [3]: 3.6 min

B4: mAb10971 (antibody, V domains shown)
VH: EVQLVESGGGLIQPGGSLRLSCAASGVTVSSNYMSWVRQAPGKGLEWVSVIYSGGSTFYSDSVKGRFSISRDNSKNTLYLQMNSLRAEDTAVYYCARDLYYYGMDVWGQGTTVTVSS
VL: DIQLTQSPSFLSASVGDRVTITCRASQGISTYLAWYQQKPGKAPKLLIYAASTLQSGVPSRFSGSGSGTEFTLTISSLQPEDFATYYCQQLDSYPGLTFGGGTKVEIKR
Neutralization (1:100 dilution) [4]: 73.9%

B5: mAb10971 (antibody, V domains shown)
VH: B4 VH
VL: B4 VL
mAb neutralization potency (IC50 (M)) [5]: 1.55e-10 M

B6: mAb10956 (antibody, V domains shown)
VH: B4 VH with I12V, V27L, S60A, S68T, Y100I, Y101K
VL: B2 VL with N30S, K31N, N76S, F83I, F87Y, A97H, Q100P, E105D
Neutralization (1:20 dilution) [4]: 84.1%
Neutralization (1:100 dilution) [4]: 61.6%

B7: mAb10956 (antibody, V domains shown)
VH: B4 VH with I12V, V27L, S60A, S68T, Y100I, Y101K
VL: B2 VL with N30S, K31N, N76S, F83I, F87Y, A97H, Q100P, E105D
mAb neutralization potency (IC50 (M)) [5]: 1.28e-10 M

B8: mAb10922 (antibody, V domains shown)
VH: EVQLVESGGGLVQPGGSLRLSCAASGFTFSIYEMNWVRQAPGKGLEWVSYITSSGTTIYYADSVKGRFTISRDNAKNSLYLQMNSLRAEDTAVYYCASSSSSGYYFDYWGQGTLVTVSS
VL: not shown
mAb neutralization potency (IC50 (M)) [5]: 1.21e-10 M

B9: mAb10922 (antibody, V domains shown)
VH: B8 VH
VL: not shown
koff [6]: 0.002 s⁻¹
kon [6]: 391000 M⁻¹ s⁻¹
t½ [6]: 5.8 min

B10: mAb10966 (antibody, V domains shown)
VH: EVQLVESGGGLVQPGGSLRLSCAASGLTVSSNYMSWVRQAPGKGLEWVSVIYSGGSTFYADSVKGRFTISRDNSKNTLYLQMNSLRPEDTAVYYCAREGRIAATGYGMDVWGQGTTVTVSS
VL: DIQMTQSPSSLSASVGDRVTITCQASQDISNYLNWYQQKPGKAPKLLIYDASNLGTGVPSRFSGSRSGTDFTFTISSLQPEDIATYYCHQYDNLPQTFGPGTKVDIKR
Neutralization (1:100 dilution) [4]: 76.2%

B11: mAb10938 (antibody, V domains shown)
VH: EVQLVESGGGLVQPGGSLRLSCAVSGFTVSSNYMSWVRQAPGKGLEWVSLIYSGGSTFYADSVKGRFTISRHNSKNTLYLQMNSLRAEDTAVYYCAREGGYSYDYNYWGQGTLVTVSS
VL: B2 VL with N30R, K31N, S65I, N76S, F83I, F87Y, P96I, A97T, K103R, V104L
t½ [6]: 33.2 min

B12: mAb10966 (antibody, V domains shown)
VH: B10 VH
VL: B10 VL
mAb neutralization potency (IC50 (M)) [5]: 1e-10 M

B13: mAb10966 (antibody, V domains shown)
VH: B10 VH
VL: B10 VL
t½ [6]: 26.3 min

B14: mAb10985 (antibody, V domains shown)
VH: EVQLVESGGGLVQPGRSLRLSCAASGFTFDDYAMHWVRQAPGKGLEWVSGISWNRGSIGYADSVKGRFTISRDNAKNSLYLQMSSLRAEDTALYYCAKDGERWDSVVVPSARNGMDVWGQGTTVTVSS
VL: QSVLTQPPSVSGAPGQRVTISCTGSSSNIGAGYDVHWYQQLPGTAPKLLIYGNSNRPSGVPDRFSGSKSGTSASLAITGLQAEDEADYYCQSYDSSLSGSYVFGTGTKVTVLG
t½ [3]: 7.5 min

B15: mAb10932 (antibody, V domains shown)
VH: EVQLVESGGGLVQSGGSLRLSCAASGLTVSSNYMSWVRQAPGKGLEWVSVIYSGGSTFYSDSVKGRFTISRHNSKNTLYLQMNSLRAEDTAVYYCARARGDAFDIWGQGTMVTVSS
VL: DIQMTQSPSSLSASVGDRVTITCQASQGISNYLNWYQQKPGKAPKLLISDASNLETGVPSRFSGSGSGTDFTFTISSLQPEDIATYYCQQYDNLRFFTFGPGTKVDIKR
mAb neutralization potency (IC50 (M)) [5]: 3.58e-10 M

B16: mAb10932 (antibody, V domains shown)
VH: B15 VH
VL: B15 VL
Neutralization (1:100 dilution) [4]: 68%

B17: mAb10987 (antibody)
heavy: not shown
light: QSALTQPASVSGSPGQSITISCTGTSSDVGGYNYVSWYQQHPGKAPKLMIYDVSKRPSGVSNRFSGSKSGNTASLTISGLQSEDEADYYCNSLTSISTWVFGGGTKLTVLGQPKAAPSVTLFPPSSEELQANKATLVCLISDFYPGAVTVAWKADSSPVKAGVETTTPSKQSNNKYAASSYLSLTPEQWKSHRSYSCQVTHEGSTVEKTVAPTECS
ADCC Mean RLU [1]: 12000 RLU

B18: mAb10989 (antibody)
heavy: not shown
light: B17 light with G31T, Y51F, K55N, N62D, S82A, N91S, L93F, S95T, I96S, W99V
ADCC Mean RLU [1]: 10200 RLU

B19: mAb10930 (antibody, V domains shown)
VH: EVQLVESGGGLVQPGRSLRLSCAASGFTFDDYAMYWVRQAPGKGLEWVSGISWNSGSIGYADSVKGRFTISRDNAKNSLYLQMNSLRAADTALYYCAKDKDWNSRGYYYYGMDVWGQGTTVTVSS
VL: not shown
mAb neutralization potency (IC50 (M)) [5]: 1.07e-09 M

B20: mAb10930 (antibody, V domains shown)
VH: B19 VH
VL: not shown
t½ [6]: 6.2 min

B21: mAb10913 (antibody, V domains shown)
VH: EVQLVESGGGLVQPGGSLRLSCAASGFTFRNYEMNWVRQAPGKGLEWVSYITSSGSTMYYADSVKGRFTISRDNAKNSLYLQMNSLRAEDTAVYYCARDGFYYYYAMDVWGQGTTVTVSS
VL: QSVLTQPPSVSAAPGQKVTISCSGSSSNIGNNYVSWYQQLPGTAPKLLIYDNNKRPSGIPDRFSGSKSGTSATLGITGLQTGDEADYYCGTWDSSLSVGRVFGTGTKVTVLG
Antibody Binding Signal (RLU) [7]: 51 RLU

B22: mAb10985 (antibody)
heavy: not shown
light: QSVLTQPPSVSGAPGQRVTISCTGSSSNIGAGYDVHWYQQLPGTAPKLLIYGNSNRPSGVPDRFSGSKSGTSASLAITGLQAEDEADYYCQSYDSSLSGSYVFGTGTKVTVLGQPKAAPSVTLFPPSSEELQANKATLVCLISDFYPGAVTVAWKADSSPVKAGVETTTPSKQSNNKYAASSYLSLTPEQWKSHRSYSCQVTHEGSTVEKTVAPTECS
ADCC Mean RLU [1]: 5840 RLU

B23: mAb10986 (antibody)
heavy: not shown
light: B22 light with A31T, S54T, G99D
ADCC Mean RLU [1]: 6200 RLU
